Measured values from several laboratories, pooled; numbers as filed in NIAID ChemDB.

Common to all: whole-cell or culture tests; species: Aspergillus niger; read-out: zone

An empty or dashed field is not shown. Zones are inhibition diameters on agar. Neighbouring rows are from separate reports.

smiles	strain or isolate	read by	tested at	value
COc1ccc(-n2c(C)nc3ccc(Br)cc3c2=O)cc1		agar diffusion / agar	50 µg/mL	17.46 mm
COc1ccc2nc(NS(=O)(=O)C3C(=O)ONN3c3ccc(C)cc3)sc2c1	MTCC 282	agar diffusion	250 µg/mL	19 mm
CCCCC(CC)COC(=O)c1ccccc1C(=O)OCC(CC)CCCC		agar diffusion / agar	50000 µg/mL	1.25 mm
CC(=O)Oc1c(-c2ccco2)oc2ccccc2c1=O		agar diffusion	100 µg/mL	25 mm
Cc1ccc2nc(Cl)c(CNc3ccc(Cl)cc3)cc2c1	MTCC 281	agar diffusion	200 µg/mL	13.76 mm
Nc1ccc(S(N)(=O)=O)cc1		agar diffusion / agar	25 µg/mL	24 mm
Cc1ccc(N2NOC(=O)C2S(=O)(=O)Nc2nc3ccc(Cl)cc3s2)cc1	MTCC 282	agar diffusion	250 µg/mL	24 mm
COc1cc2occc2c2oc(-c3ccccc3)cc(=O)c12		agar diffusion	50 µg/disc	18 mm
Cc1ccc(N2NOC(=O)C2S(=O)(=O)Nc2nc(-c3ccc(Br)cc3)cs2)cc1	MTCC 282	agar diffusion	250 µg/mL	21 mm
O=C1NC(=S)NC(=O)C1=Cc1cn(-c2ccccc2)nc1-c1cc2cc(Cl)cc(Cl)c2oc1=O		agar diffusion / agar	150 µg	0 mm
Cc1ccc(N2NOC(=O)C2S(=O)(=O)Nc2nc3ccc(F)cc3s2)cc1	MTCC 282	agar diffusion	250 µg/mL	21 mm
c1ccc2ccccc2c1		agar diffusion / agar	10000 µg/mL	0.45 mm
Cc1nc(Nc2ccccc2)nc(C)c1Br			10 µg/mL	1.6 mm
C(/C=C/c1ccccc1)=NCCNCCN=C/C=C/c1ccccc1.[I][Hg][I]		agar diffusion	10000 µg/mL	31 mm
Cc1cc(C)nc(Nc2ccccc2)n1			50 µg/mL	2.9 mm
C(/C=C/c1ccccc1)=NCCNCCN=C/C=C/c1ccccc1.N#C[S][Hg][S]C#N		agar diffusion	30000 µg/mL	28 mm
Cc1ccc(O)c(/C=N/NC(=O)Nc2nc(-c3ccccc3)cs2)c1		agar diffusion	100 µg/mL	17 mm
Cc1ccc(N2NOC(=O)C2S(=O)(=O)Nc2nc(-c3ccc(F)cc3F)cs2)cc1	MTCC 282	agar diffusion	250 µg/mL	22 mm
COc1ccc(-c2oc3ccc(Cl)cc3c(=O)c2O)cc1OC		agar diffusion	100 µg/mL	16 mm
Cc1ccc(N2NOC(=O)C2S(=O)(=O)Nc2nc(-c3ccc(Cl)cc3)cs2)cc1	MTCC 282	agar diffusion	250 µg/mL	23 mm
O=c1c(O)c(-c2ccco2)oc2ccc(Cl)cc12		agar diffusion	100 µg/mL	21 mm
O=C1NC(=S)NC(=O)C1=Cc1cn(-c2ccccc2)nc1-c1cc2ccccc2oc1=O		agar diffusion / agar	150 µg	0 mm
Cc1nc2ccc(Br)cc2c(=O)n1-c1ccccc1Br		agar diffusion / agar	50 µg/mL	23.07 mm
Cc1ccc2nc(Cl)c(CNc3ccc(F)c(Cl)c3)cc2c1	MTCC 281	agar diffusion	200 µg/mL	14.06 mm
CN[C@@H]1[C@@H](O)[C@@H](O[C@@H]2[C@@H](O)[C@H](O[C@H]3O[C@H](CN)CC[C@H]3N)[C@@H](N)C[C@H]2N)OC[C@]1(C)O		agar diffusion	100 µg/mL	25 mm
O=C1NC(=S)NC(=O)C1=Cc1cn(-c2ccccc2)nc1-c1cc2cc(Br)ccc2oc1=O		agar diffusion / agar	150 µg	0 mm
Cc1nc(Nc2ccccc2)nc2c1C(=N)C(C#N)CN(Cc1ccccc1)C2			100 µg/mL	1.33 mm
O=c1c(O)c(-c2ccccc2)oc2ccccc12		agar diffusion	100 µg/mL	12 mm
COc1ccc(NCc2cc3cc(C)ccc3nc2Cl)cc1	MTCC 281	agar diffusion	200 µg/mL	9.76 mm
C[C@@H]1[C@H](O)[C@@H](C)/C=C/C=C/CC/C=C/C=C/C=C/C=C/C(O[C@H]2O[C@H](C)[C@@H](O)[C@H](N)[C@@H]2O)CC2O[C@](O)(CC(O)C(O)CCC(O)CC(O)CC(O)CC(=O)O[C@H]1C)CC(O)C2C(=O)O		agar diffusion	50 µg/disc	23 mm
C[C@@H]1O[C@@H](OC[C@H]2O[C@@H](Oc3ccc(-c4oc5cc(O)cc(O)c5c(=O)c4O)cc3)[C@H](O)[C@@H](O)[C@@H]2O)[C@H](O)[C@H](O)[C@H]1O		agar diffusion / agar	10000 µg/mL	0 mm
O=c1c(O)c(-c2ccc(F)cc2)oc2ccccc12		agar diffusion	100 µg/mL	18 mm
NS(=O)(=O)c1ccc(NCc2ccc(O)c3ncccc23)cc1		agar	25 µg/mL	37 mm
Cc1ccc2nc(Cl)c(CN3CCCCC3)cc2c1	MTCC 281	agar diffusion	200 µg/mL	6.44 mm
O=C1NC(=O)C(=Cc2cn(-c3ccccc3)nc2-c2cc3ccc4ccccc4c3oc2=O)C(=O)N1		agar diffusion / agar	100 µg	0 mm
Oc1ccccc1		agar diffusion / agar	10000 µg/mL	0 mm
CC(C)(CN=C/C=C/c1ccccc1[N+](=O)[O-])CN=C/C=C/c1ccccc1[N+](=O)[O-]		agar diffusion	2.5 mg/disc	0.8 mm
O=C(/C=C/c1ccccc1)c1ccc2occc2c1O		agar diffusion	50 µg/disc	0 mm
Cc1ccc(N2NOC(=O)C2S(=O)(=O)Nc2nc(-c3ccc(Cl)cc3Cl)cs2)cc1	MTCC 282	agar diffusion	250 µg/mL	20 mm
O=C(O)/C=C/c1ccccc1		agar diffusion / agar	50000 µg/mL	0.98 mm
CC(=O)Oc1c(-c2ccc(F)cc2)oc2ccc(Cl)cc2c1=O		agar diffusion	100 µg/mL	18 mm
Cc1nc2ccc(Br)cc2c(=O)n1-c1ccc(Br)cc1		agar diffusion / agar	50 µg/mL	24.77 mm
CC(=O)Oc1c(-c2ccc(C)cc2)oc2ccccc2c1=O		agar diffusion	100 µg/mL	13 mm
Cc1nc2ccc(Br)cc2c(=O)n1-c1ccc([N+](=O)[O-])cc1		agar diffusion / agar	50 µg/mL	17.96 mm
O=C1NC(=S)NC(=O)C1=Cc1cn(-c2ccccc2)nc1-c1cc2cc(Cl)ccc2oc1=O		agar diffusion / agar	100 µg	0 mm
COc1ccc(-c2oc3ccccc3c(=O)c2O)cc1OC		agar diffusion	100 µg/mL	11 mm

For reference, 7 entries again:

smiles,strain or isolate,read by,tested at,value
C(/C=C/c1ccccc1)=NCCNCCN=C/C=C/c1ccccc1.N#C[S][Hg][S]C#N,,agar diffusion,30000 µg/mL,28 mm
O=c1c(O)c(-c2ccccc2)oc2ccccc12,,agar diffusion,100 µg/mL,12 mm
C(/C=C/c1ccccc1)=NCCNCCN=C/C=C/c1ccccc1.[I][Hg][I],,agar diffusion,10000 µg/mL,31 mm
Cc1nc(Nc2ccccc2)nc2c1C(=N)C(C#N)CN(Cc1ccccc1)C2,,,100 µg/mL,1.33 mm
Cc1ccc(N2NOC(=O)C2S(=O)(=O)Nc2nc3ccc(Cl)cc3s2)cc1,MTCC 282,agar diffusion,250 µg/mL,24 mm
Cc1ccc(N2NOC(=O)C2S(=O)(=O)Nc2nc(-c3ccc(Cl)cc3Cl)cs2)cc1,MTCC 282,agar diffusion,250 µg/mL,20 mm
O=c1c(O)c(-c2ccco2)oc2ccc(Cl)cc12,,agar diffusion,100 µg/mL,21 mm